A mixed list of measured activities; the numbers were collected in NIAID ChemDB.

All rows: whole-cell or culture tests; species: Mycobacterium tuberculosis

Two numbers with a dash give a range or band.

smiles	cells	measure	strain or isolate	dose	read by	result
CC1=NC(=O)C(=Cc2ccc(N(C)C)cc2)N1c1cc(C(C)C)c(O)cc1C		inhibition	H37Rv	100 µg/mL		inactive
CN=C(Nn1c(C)nc2ccccc2c1=O)SC		EC50	H37Rv		resazurin	25 µg/mL
Cc1cccc(C)c1Nc1nnc(-c2ccccn2)s1		MIC	H37Rv		visual reading	>20 µM
NC[C@@H]1O[C@H](O[C@H]2[C@@H](O)[C@H](O[C@@H]3[C@@H](O)[C@H](N)C[C@H](N)[C@H]3O[C@H]3O[C@H](CO)[C@@H](O)[C@H](O)[C@H]3N)O[C@@H]2CO)[C@H](N)[C@@H](O)[C@@H]1O		MIC	MTB21 (S)			<0.09 µg/mL
COc1ccccc1C1SC(CC(=O)O)C(=O)N1c1cc(C(C)C)c(O)cc1C		inhibition	H37Rv	100 µg/mL		inactive
Cc1ccc2nc(C)c(C(=O)NCc3cccc(S(F)(F)(F)(F)F)c3)n2c1		MIC	H37Rv		low oxygen	200 µM
c1coc(-c2nc(N=C3N=c4ccccc4=N3)[nH]c2-c2ccco2)c1		inhibition	H37Rv	12.5 µg/mL	BACTEC	69%
CN(C)CC1CCC/C(=C\c2ccc(OC(=O)/C=C/c3ccc(Cl)cc3)cc2)C1=O		inhibition	H37Rv	12.5 µg/mL		100%
CCOC(=O)Cc1csc(NC(=O)CSC(=S)N(CC)c2ccccc2)n1		MIC	H37Rv			>156 µg/mL
CCOC(=O)c1cc(-c2ccc(OC)cc2)n(CC(=O)NN)c1C		EC50	H37Rv		BACTEC	>6.25 µg/mL
CSC(=Nc1ccc(Br)cc1)Nn1c(C)nc2ccccc2c1=O		EC50	H37Rv		resazurin	12.5 µg/mL
CN(C1CCN(Cc2ccncc2)CC1)S(=O)(=O)c1ccc(-n2cccn2)cc1		MIC				12.5 µM
C=C[C@]1(C)C=C2[C@H](O)C[C@@H]3C(C)(CCC[C@@]3(C)CO)[C@H]2CC1		inhibition	ITM3526	100 µg/mL		inactive
CCOc1ccccc1Nc1cc(Cl)nc(N)n1		inhibition	H37Rv	12.5 µg/mL	BACTEC	55%
NCC(=O)c1ccc(O)c(O)c1		MIC	H37Rv			10 µg/mL
Cc1ccc(/C=C/C(=O)Oc2ccc(/C=C3\CCC/C(=C\c4ccc(OC(=O)/C=C/c5ccc(C)cc5)cc4)C3=O)cc2)cc1		EC50	H37Rv			>12.5 µg/mL
CN(C(=S)S(=O)(=O)C12CC3CC(CC(C3)C1)C2)c1ccccc1		MIC bound	H37Rv		BACTEC	≤128 µg/mL
CCOC(=O)c1c(C)c(-c2ccccc2)n(CCC(=O)NN)c1C		inhibition	H37Rv	6.25 µg/mL	BACTEC	0%
NNC(=O)c1ccncc1		MIC	MTB12 (PZA-R)			0.12 µg/mL
CC(C(=O)Nc1ccc(N(CCCl)CCCl)cc1)n1ccnc1[N+](=O)[O-]		MIC bound	H37Rv		resazurin	>6.25 µg/mL
COc1cc(C=C2C(=O)N=C(C)N2c2cc(C(C)C)c(O)cc2C)ccc1O		inhibition	H37Rv	100 µg/mL		inactive
O=S(=O)(NC1CCN(Cc2ccncc2)CC1)c1ccc(-n2cccn2)cc1		MIC				1.1 µM
C[C@H]1COc2c(N3CCN(C)CC3)c(F)cc3c(=O)c(C(=O)O)cn1c23		MIC	H37Rv			0.5 µg/mL
CCOC(=O)Cc1csc(NC(=O)C(SC(=S)N(CC)CC)c2ccccc2)n1		MIC	H37Rv			>156 µg/mL
C=C1C(=O)[C@@]23CC[C@H]4C(C)(CCC[C@@]4(C)C(=O)OC)[C@@H]2CC[C@]1(O)C3		MIC	PAS-R			6.3 µg/mL
CCOC(=O)Cc1csc(NC(=O)C(SC(=S)N2CCCCC2)c2ccccc2)n1		MIC	H37Rv			>156 µg/mL
O=C(/C=C/c1ccc(F)cc1)Oc1ccc(/C=C2\CCCCC2=O)cc1		inhibition	H37Rv	12.5 µg/mL		54%
Cc1cc(N/N=C/c2ccccc2[N+](=O)[O-])c2cccc(C)c2n1		MIC	H37Rv			10 µg/mL
C[C@H]1COC2(CCN(c3nc(=O)c4cc(C(F)(F)F)cc(C(=O)O)c4s3)CC2)O1		MIC99	H37Rv		resazurin	0.001 µg/mL
CCOC(=O)c1cc(-c2ccc(-c3ccccc3)cc2)n(CCC(=O)NN)c1C		EC50	H37Rv		BACTEC	>6.25 µg/mL
CCn1cc(C(=O)O)c(=O)c2cc(F)c(N3CCNCC3)nc21	VERO	MIC	H37Rv			12.5 µg/mL
CCOC(=O)c1c(C)[nH]c(C(=O)N/N=C/c2ccc([N+](=O)[O-])o2)c1C		inhibition	H37Rv	6.25 µg/mL	BACTEC	40%
Fc1ccc(-c2csc(CN=Cc3cn(Cc4ccc(Cl)cc4Cl)c4ccccc34)n2)cc1		MIC	H37Rv		agar	>12.5 µg/mL
Nc1nc(-c2cccs2)cs1		MIC bound	H37Rv		BACTEC	>6.25 µg/mL
CCOC(=O)Cc1csc(NC(=O)C(SC(=S)N2CCCC2)c2ccccc2)n1		MIC	H37Rv			>156 µg/mL
O=S1(=O)OC(c2ccc(O)cc2)(c2ccc(O)cc2)c2ccccc21		MIC bound	H37Rv		BACTEC	>12.5 µg/mL
CCCc1ncc(C(N)=S)nc1SCC		MIC	H37Rv			>12.5 µg/mL
C=C(NC(=O)C(=C)NC(=O)c1csc(C2=N[C@@H]3c4csc(n4)[C@H]4NC(=O)c5csc(n5)[C@H]([C@](C)(O)[C@@H](C)O)NC(=O)C5CSC(=N5)/C(=C/C)NC(=O)[C@H]([C@@H](C)O)NC(=O)c5csc(n5)[C@]3(CC2)NC(=O)C(C)NC(=O)C(=C)NC(=O)C(C)NC(=O)C(C(C)CC)NC2C=Cc3c([C@H](C)O)cc(nc3[C@H]2O)C(=O)O[C@@H]4C)n1)C(N)=O		MIC bound	H37Rv		BACTEC	>128 µg/mL
CCOC(=O)Cc1csc(NC(=O)CSC(=S)N(CC)CC)n1		MIC	H37Rv			>156 µg/mL
Cc1cc(C)c(C(=O)N/N=C/c2ccc([N+](=O)[O-])o2)[nH]1		EC50	H37Rv		BACTEC	>6.25 µg/mL
Cc1cc(-n2cccn2)ccc1S(=O)(=O)NC1CCN(Cc2ccncc2)CC1		MIC	Clinical isolate			1.6–6.3 µM
O=C(/C=C/c1ccccc1)Oc1ccc(/C=C2\CCCCC2=O)cc1		EC50	H37Rv			>12.5 µg/mL
CSC(=Nc1ccc(F)cc1)Nn1c(C)nc2ccccc2c1=O		EC50	H37Rv		resazurin	25 µg/mL
Cc1ccc2nc(C)c(C(=O)NCc3ccc(S(F)(F)(F)(F)F)cc3)n2c1		MIC	H37Rv		low oxygen	0.62 µM
CCCCc1ncc(C(N)=S)nc1SC		inhibition	H37Rv	12.5 µg/mL		62%
CCOC(=O)c1cc(-c2ccc(OC)cc2)n(CC(=O)N/N=C/c2ccc([N+](=O)[O-])o2)c1C		EC50	H37Rv		BACTEC	>6.25 µg/mL
Cc1c(N2C[C@@H]3CCCN[C@@H]3C2)c(F)cn2c(=O)c(C(=O)O)cc(C3CC3)c12		MIC	ATCC35801			0.016 µg/mL
O=C1CC(SC(=S)N2CCOCC2)C(=O)N1		MIC	H37Rv		BACTEC	2 µg/mL
CCOC(=O)Cc1csc(NC(=O)C(SC(=S)N2CCOCC2)c2ccccc2)n1		MIC	H37Rv			>156 µg/mL
CSC(=Nc1ccc(Cl)cc1)Nn1c(C)nc2ccccc2c1=O		EC50	H37Rv		resazurin	12.5 µg/mL
CCOC(=O)NN(C(=O)OCC)c1ccc(N=Nc2ccc(OC)cc2)n1C		MIC bound	H37Rv		BACTEC	>6.25 µg/mL
FC(F)(F)c1ccccc1Nc1nc(-c2ccccc2S)cs1		MIC	H37Rv		visual reading	>20 µM
COc1ccc(C=Nc2ccc(O)cc2)cc1OC		inhibition	H37Rv	100 µg/mL		inactive
C=C[C@@H](O)C#CC#CC[C@H]1O[C@H]1CCCCCCC		MIC	H37Ra		resazurin	36 µM
O=C1C=C(NCCc2ccccc2)c2ccccc2C1=O		MIC bound	H37Rv		resazurin	<6.25 µg/mL
Cc1c[nH]c(C)c1C(=O)N/N=C/c1c[nH]c2ccccc12		EC50	H37Rv		BACTEC	>6.25 µg/mL
COc1ccccc1Nc1nc(-c2ccccn2)cs1		MIC	H37Rv		visual reading	20 µM
Cc1ccc(NC=O)cc1F		inhibition	H37Rv	12.5 µg/mL	BACTEC	0%
CCOC(=O)Cc1csc(NC(=O)CSC(=S)N2CCN(C)CC2)n1		MIC	H37Rv			>156 µg/mL
CC1=C(C)C(=O)C(C(C)(C)CC(=O)n2cc(F)c(=O)[nH]c2=O)=C(C)C1=O		MIC	INH-r			4 µg/mL
CC(C)Cc1ncc(C(N)=O)nc1Sc1ccccc1		inhibition	H37Rv	12.5 µg/mL		<90%
CCOC(=O)Cc1csc(NC(=O)C(C)SC(=S)N(CC)CC)n1		MIC	H37Rv			>156 µg/mL
Nc1ccc(C(=O)O)c(Cl)c1		inhibition	H37Rv	12.5 µg/mL	BACTEC	7%
COc1cc(CC(C)C(C)Cc2ccc(O)c(OC)c2)ccc1O		MIC	H37Rv		MTT	>128 µM
COc1ccc2nc(C)cc(N/N=C/c3ccccc3[N+](=O)[O-])c2c1		MIC	H37Rv			10 µg/mL
Cc1ccc(C(=O)Oc2ccc(/C=C3\CCC/C(=C\c4ccc(OC(=O)c5ccc(C)cc5)cc4)C3=O)cc2)cc1		EC50	H37Rv			>12.5 µg/mL
O=S(=O)(NC1CCN(Cc2ccncc2)CC1)c1ccc(-n2cccn2)cn1		MIC				1.5 µM
CC(C)Cc1ncc(C(N)=S)nc1Sc1ccccc1		MIC	H37Rv			>6.25 µg/mL
CSC(=Nc1ccc([N+](=O)[O-])cc1)Nn1c(C)nc2ccccc2c1=O		EC50	H37Rv		resazurin	6.25 µg/mL
CCCCc1ncc(C(N)=O)nc1Sc1ccccc1		inhibition	H37Rv	12.5 µg/mL		61%
O=C1CCCC/C1=C\c1ccc(OC(=O)c2ccccc2)cc1		EC50	H37Rv			<12.5 µg/mL
Cc1c(N=CN(C)C)c(=O)n(-c2ccccc2)n1C		MIC bound	H37Rv		BACTEC	>12.8 µg/mL
COc1cccc(OC)c1Nc1nc(-c2ccc(F)cc2)cs1		MIC	H37Rv		agar	>12.5 µg/mL
COc1cc(C2C(Cl)C(=O)N2c2cc(C(C)C)c(O)cc2C)ccc1O		inhibition	H37Rv	100 µg/mL		inactive
Cc1cc(N/N=C/c2ccccc2O)c2c(C)cccc2n1		MIC	H37Rv			10 µg/mL
Cc1cc(O)c(C(C)C)cc1N1C(=Cc2ccoc2)C(=O)N=C1c1ccccc1		inhibition	H37Rv	100 µg/mL		inactive
CCCCSc1nc(C(N)=O)cnc1CCC		inhibition	H37Rv	12.5 µg/mL		<90%
Cc1ccc(N=Nc2sc(N)nc2-c2ccc(Cl)cc2)cc1		MIC bound	H37Rv		BACTEC	>6.25 µg/mL
O=S(=O)(c1ccc(-n2cccn2)cc1)N1CCN(Cc2ccncc2)CC1		MIC				12.5 µM
Cc1ccn2c(C(=O)NCc3ccc(S(F)(F)(F)(F)F)cc3)c(C)nc2c1		MIC	H37Rv		low oxygen	1.1 µM
CCSc1nc(C(N)=O)cnc1CC(C)C		MIC	H37Rv			>12.5 µg/mL
c1cc2c3c(cccc3c1)N1C(=N2)Sc2nc3ccccc3nc21		inhibition	H37Rv	6.25 µg/mL		4%
CCCCN1CN(NC(=O)c2ccncc2)CSC1=S		MIC				25 µg/mL
CC1=NN(C(=O)NS(=O)(=O)c2ccc(CCNC(=O)c3nccnc3N)cc2)CC1		inhibition	H37Rv	12.5 µg/mL	BACTEC	5%
O=C(Nc1nc(-c2ccccn2)cs1)c1ccccc1		MIC			visual reading	8 µM
CN1CCOP(=O)(Oc2ccccc2)N1		MIC bound	H37Rv		BACTEC	≤128 µg/mL
COc1cc(OC)c(C(=O)CCc2ccccc2)c(OC)c1		MIC	H37Rv		MTT	>128 µM

A second listing of 11 rows from above:

smiles	cells	measure	strain or isolate	dose	read by	result
CCOC(=O)c1cc(-c2ccc(OC)cc2)n(CC(=O)NN)c1C		EC50	H37Rv		BACTEC	>6.25 µg/mL
CCOC(=O)Cc1csc(NC(=O)C(SC(=S)N(CC)CC)c2ccccc2)n1		MIC	H37Rv			>156 µg/mL
COc1cccc(OC)c1Nc1nc(-c2ccc(F)cc2)cs1		MIC	H37Rv		agar	>12.5 µg/mL
O=C(/C=C/c1ccc(F)cc1)Oc1ccc(/C=C2\CCCCC2=O)cc1		inhibition	H37Rv	12.5 µg/mL		54%
c1cc2c3c(cccc3c1)N1C(=N2)Sc2nc3ccccc3nc21		inhibition	H37Rv	6.25 µg/mL		4%
CCOC(=O)Cc1csc(NC(=O)C(SC(=S)N2CCOCC2)c2ccccc2)n1		MIC	H37Rv			>156 µg/mL
CCOC(=O)c1c(C)[nH]c(C(=O)N/N=C/c2ccc([N+](=O)[O-])o2)c1C		inhibition	H37Rv	6.25 µg/mL	BACTEC	40%
CCCCSc1nc(C(N)=O)cnc1CCC		inhibition	H37Rv	12.5 µg/mL		<90%
CCOC(=O)Cc1csc(NC(=O)C(SC(=S)N2CCCCC2)c2ccccc2)n1		MIC	H37Rv			>156 µg/mL
O=C(/C=C/c1ccccc1)Oc1ccc(/C=C2\CCCCC2=O)cc1		EC50	H37Rv			>12.5 µg/mL
Cc1ccc2nc(C)c(C(=O)NCc3cccc(S(F)(F)(F)(F)F)c3)n2c1		MIC	H37Rv		low oxygen	200 µM

ECn: concentration that inhibits the pathogen or its effect by n%. Conditions beyond the fields shown may differ between rows. MIC bound comes from a single tested concentration. Blank or dashed fields: not listed here. "inactive" is the filed call at that dose; no cut-off is given. Inhibition is in % at the dose shown (toxicity tests: loss of growth or viability). MIC50, MIC90 and the like: level of inhibition, or share of isolates inhibited.